Measurements: US8815813B2, “Methods for treating immune-mediated Dengue Fever infections and antibody-dependent enhancement of Dengue Fever infections, including Dengue Hemorrhagic Fever and Dengue Shock Syndrome” (priority 2008, dated 2014)

System: FcγIIa (R131 allele)
Test: Reverse ELISA: inhibition of PAP-IC binding to FcγIIa (R131 allele) coated plates
Details: for OD405 FcγIIa (R131 allele): PAP pre-incubated with peptide 1 h, positive control 1.599

| Substance | OD405 FcγIIa (R131 allele) | overall inhibition of FcR binding to PAP (ranking in words) (summary of Table 2 over FcγIIa, FcγIIb and FcγIII) |
| --- | --- | --- |
| Ala-Pro-Pro-Cys-Ala-Arg-His-Leu-Gly-Glu-Leu-Val-Trp-Cys-Thr | 0.956 | – |
| Asp-Cys-Ala-Phe-His-Leu-Gly-Glu-Leu-Val-Trp-Cys-Thr | 0.660 | – |
| Ala-Pro-Pro-Cys-Ala-Phe-His-Leu-Gly-Glu-Leu-Val-Trp-Cys-Thr | 0.605 | – |
| Ala-Pro-Pro-Asp-Cys-Ala-Trp-His-Leu-Gly-Glu-Leu-Val-Trp-Cys-Thr | 0.509 | greatest overall inhibition of FcR binding to PAP |
| Ala-Pro-Pro-Cys-Ala-Trp-His-Leu-Gly-Glu-Leu-Val-Trp-Cys-Thr | 0.658 | – |
